Data taken from US20240294572A1, “Antimicrobial Peptides” (priority 2021, published 2024).
Non-standard residues stand in square brackets, D forms with d. Residues, ends and D or L forms follow the SMILES beside them. *: point of attachment. Myristoyl = CCCCCCCCCCCCCC(=O)*; Lauroyl = CCCCCCCCCCCC(=O)*; Decanoyl = CCCCCCCCCC(=O)*; Octanoyl = CCCCCCCC(=O)*; Hexanoyl = CCCCCC(=O)*

Tested on: human red blood cells (hRBCs)
Assay type: cell-based
Conditions: cell selectivity index = HC50/MIC against S. aureus
Protocol: Hemolytic assays of peptides were performed as described (Lakshmaiah, et al. (2020) Proc. Natl. Acad. Sci., 117:19446-19454). Briefly, human red blood cells (hRBCs) were obtained from UNMC Blood Bank. The cells were washed 3× with isotonic saline (0.9% NaCl) and diluted to 2% (v/v). Peptides at various concentrations were added to the 2% blood cells and incubated at 37° C. for 1 hour. Post-incubation, the plates were spun at 2000 rpm for 10 minutes; aliquots of the supernatant were carefully transferred to a fresh 96-well microplate. The amount of cells lysed is proportional to the hemoglobin released and was measured at 545 nm using a ChroMate® microplate reader (Awareness Technology, FL). The percent lysis was calculated by assuming 100% release when human blood cells were treated with 1% Triton™ X-100, and 0% release when incubated with PBS. The peptide concentration that caused 50% lysis of hRBCs is defined as HC50. The cell selectivity index (CSI) was calculated as the ratio between HC50 and the MIC of the corresponding peptide against MRSA.

In the case of CCCCCC(=O)N[C@@H](CCCCN)C(=O)N[C@@H](CCCNC(=N)N)C(=O)N[C@H](C(=O)N[C@@H](Cc1c[nH]c2ccccc12)C(=O)N[C@@H](CCC(N)=O)C(=O)N[C@@H](CCCNC(=N)N)C(=O)N[C@H](C(=O)N[C@@H](CCCCN)C(=O)N[C@@H](CC(=O)O)C(=O)N[C@@H](Cc1ccccc1)C(N)=O)[C@@H](C)CC)[C@@H](C)CC [Peptide C6-KR10] (Hexanoyl-KRIWQRIKDF-NH2), the CSI is reported as >8.
CCCCCC(=O)N[C@@H](CCCCN)C(=O)N[C@@H](CCCNC(=N)N)C(=O)N[C@H](C(=O)N[C@@H](Cc1c[nH]c2ccccc12)C(=O)N[C@@H](CCC(N)=O)C(=O)N[C@@H](CCCNC(=N)N)C(=O)N[C@H](C(=O)N[C@@H](CCCCN)C(=O)N[C@@H](CC(=O)O)C(=O)N[C@@H](Cc1ccccc1)C(=O)N[C@@H](CC(C)C)C(=O)N[C@@H](CCCNC(=N)N)C(N)=O)[C@@H](C)CC)[C@@H](C)CC [Peptide C6-KR12] (Hexanoyl-KRIWQRIKDFLR-NH2) showed a CSI of 16.
CCCCCCCC(=O)N[C@@H](CCCCN)C(=O)N[C@@H](CCCNC(=N)N)C(=O)N[C@H](C(=O)N[C@@H](Cc1c[nH]c2ccccc12)C(=O)N[C@@H](CCC(N)=O)C(=O)N[C@@H](CCCNC(=N)N)C(=O)N[C@H](C(=O)N[C@@H](CCCCN)C(N)=O)[C@@H](C)CC)[C@@H](C)CC [Peptide C8-KR8] (Octanoyl-KRIWQRIK-NH2) was tested, and the CSI was 32.
With CCCCCCCC(=O)N[C@@H](CCCCN)C(=O)N[C@@H](CCCNC(=N)N)C(=O)N[C@H](C(=O)N[C@@H](Cc1c[nH]c2ccccc12)C(=O)N[C@@H](CCC(N)=O)C(=O)N[C@@H](CCCNC(=N)N)C(=O)N[C@H](C(=O)N[C@@H](CCCCN)C(=O)N[C@@H](CC(=O)O)C(=O)N[C@@H](Cc1ccccc1)C(N)=O)[C@@H](C)CC)[C@@H](C)CC [Peptide C8-KR10] (Octanoyl-KRIWQRIKDF-NH2) the CSI was 40-80.
Work on CCCCCCCC(=O)N[C@H](CCCCN)C(=O)N[C@H](CCCNC(=N)N)C(=O)N[C@@H](C(=O)N[C@H](Cc1c[nH]c2ccccc12)C(=O)N[C@H](CCC(N)=O)C(=O)N[C@H](CCCNC(=N)N)C(=O)N[C@@H](C(=O)N[C@H](CCCCN)C(=O)N[C@H](CC(=O)O)C(=O)N[C@H](Cc1ccccc1)C(N)=O)[C@H](C)CC)[C@H](C)CC [Peptide C8-KR10d] (Octanoyl-[dK][dR][dI][dW][dQ][dR][dI][dK][dD][dF]-NH2) yielded a CSI of 48.
In the case of CCCCCCCC(=O)N[C@@H](CCCCN)C(=O)N[C@@H](CCCNC(=N)N)C(=O)N[C@H](C(=O)N[C@@H](Cc1c[nH]c2ccccc12)C(=O)N[C@@H](CCC(N)=O)C(=O)N[C@@H](CCCNC(=N)N)C(=O)N[C@H](C(=O)N[C@@H](CCCCN)C(=O)N[C@@H](CC(=O)O)C(=O)N[C@@H](Cc1ccccc1)C(=O)N[C@@H](CC(C)C)C(=O)N[C@@H](CCCNC(=N)N)C(N)=O)[C@@H](C)CC)[C@@H](C)CC [Peptide C8-KR12] (Octanoyl-KRIWQRIKDFLR-NH2), the CSI is reported as <8.
For CCCCCCCCCC(=O)N[C@@H](CCCCN)C(=O)N[C@@H](CCCNC(=N)N)C(=O)N[C@H](C(=O)N[C@@H](Cc1c[nH]c2ccccc12)C(N)=O)[C@@H](C)CC [Peptide C10-KR4] (Decanoyl-KRIW-NH2), the CSI was 12.
For CCCCCCCCCC(=O)N[C@@H](CCCCN)C(=O)N[C@@H](CCCNC(=N)N)C(=O)N[C@H](C(=O)N[C@@H](Cc1c[nH]c2ccccc12)C(=O)N[C@@H](CCC(N)=O)C(=O)N[C@@H](CCCNC(=N)N)C(N)=O)[C@@H](C)CC [Peptide C10-KR6] (Decanoyl-KRIWQR-NH2), the CSI was >27.
CCCCCCCCCC(=O)N[C@@H](CCCCN)C(=O)N[C@@H](CCCNC(=N)N)C(=O)N[C@H](C(=O)N[C@@H](Cc1c[nH]c2ccccc12)C(=O)N[C@@H](CCC(N)=O)C(=O)N[C@@H](CCCNC(=N)N)C(=O)N[C@H](C(=O)N[C@@H](CCCCN)C(N)=O)[C@@H](C)CC)[C@@H](C)CC [Peptide C10-KR8] (Decanoyl-KRIWQRIK-NH2) was tested, and the CSI was 200.
CCCCCCCCCC(=O)N[C@H](CCCCN)C(=O)N[C@H](CCCNC(=N)N)C(=O)N[C@@H](C(=O)N[C@H](Cc1c[nH]c2ccccc12)C(=O)N[C@H](CCC(N)=O)C(=O)N[C@H](CCCNC(=N)N)C(=O)N[C@@H](C(=O)N[C@H](CCCCN)C(N)=O)[C@H](C)CC)[C@H](C)CC [Peptide C10-KR8d] (Decanoyl-[dK][dR][dI][dW][dQ][dR][dI][dK]-NH2) gave a CSI of 200.
CCCCCCCCCC(=O)N[C@@H](CCCCN)C(=O)N[C@@H](CCCNC(=N)N)C(=O)N[C@H](C(=O)N[C@@H](Cc1c[nH]c2ccccc12)C(=O)N[C@@H](CCC(N)=O)C(=O)N[C@@H](CCCNC(=N)N)C(=O)N[C@H](C(=O)N[C@@H](CCCCN)C(=O)N[C@@H](CC(=O)O)C(=O)N[C@@H](Cc1ccccc1)C(N)=O)[C@@H](C)CC)[C@@H](C)CC [Peptide C10-KR10] (Decanoyl-KRIWQRIKDF-NH2) gave a CSI of 33.
CCCCCCCCCC(=O)N[C@@H](CCCCN)C(=O)N[C@@H](CCCNC(=N)N)C(=O)N[C@H](C(=O)N[C@@H](Cc1c[nH]c2ccccc12)C(=O)N[C@@H](CCC(N)=O)C(=O)N[C@@H](CCCNC(=N)N)C(=O)N[C@H](C(=O)N[C@@H](CCCCN)C(=O)N[C@@H](CC(=O)O)C(=O)N[C@@H](Cc1ccccc1)C(=O)N[C@@H](CC(C)C)C(=O)N[C@@H](CCCNC(=N)N)C(N)=O)[C@@H](C)CC)[C@@H](C)CC [Peptide C10-KR12] (Decanoyl-KRIWQRIKDFLR-NH2) was tested, and the CSI was <8.
Compound CCCCCCCCCCCC(=O)N[C@@H](CCCCN)C(=O)N[C@@H](CCCNC(=N)N)C(=O)N[C@H](C(=O)N[C@@H](Cc1c[nH]c2ccccc12)C(N)=O)[C@@H](C)CC [Peptide C12-KR4] (Lauroyl-KRIW-NH2) has a CSI of 10.
In the case of CCCCCCCCCCCC(=O)N[C@@H](CCCCN)C(=O)N[C@@H](CCCNC(=N)N)C(=O)N[C@H](C(=O)N[C@@H](Cc1c[nH]c2ccccc12)C(=O)N[C@@H](CCC(N)=O)C(=O)N[C@@H](CCCNC(=N)N)C(N)=O)[C@@H](C)CC [Peptide C12-KR6] (Lauroyl-KRIWQR-NH2), the CSI is reported as 24.
CCCCCCCCCCCC(=O)N[C@@H](CCCCN)C(=O)N[C@@H](CCCNC(=N)N)C(=O)N[C@H](C(=O)N[C@@H](Cc1c[nH]c2ccccc12)C(=O)N[C@@H](CCC(N)=O)C(=O)N[C@@H](CCCNC(=N)N)C(=O)N[C@H](C(=O)N[C@@H](CCCCN)C(N)=O)[C@@H](C)CC)[C@@H](C)CC [Peptide C12-KR8] (Lauroyl-KRIWQRIK-NH2) gave a CSI of 24.
With CCCCCCCCCCCC(=O)N[C@@H](CCCCN)C(=O)N[C@@H](CCCNC(=N)N)C(=O)N[C@H](C(=O)N[C@@H](Cc1c[nH]c2ccccc12)C(=O)N[C@@H](CCC(N)=O)C(=O)N[C@@H](CCCNC(=N)N)C(=O)N[C@H](C(=O)N[C@@H](CCCCN)C(=O)N[C@@H](CC(=O)O)C(=O)N[C@@H](Cc1ccccc1)C(N)=O)[C@@H](C)CC)[C@@H](C)CC [Peptide C12-KR10] (Lauroyl-KRIWQRIKDF-NH2) the CSI was <16.
CCCCCCCCCCCC(=O)N[C@@H](CCCCN)C(=O)N[C@@H](CCCNC(=N)N)C(=O)N[C@H](C(=O)N[C@@H](Cc1c[nH]c2ccccc12)C(=O)N[C@@H](CCC(N)=O)C(=O)N[C@@H](CCCNC(=N)N)C(=O)N[C@H](C(=O)N[C@@H](CCCCN)C(=O)N[C@@H](CC(=O)O)C(=O)N[C@@H](Cc1ccccc1)C(=O)N[C@@H](CC(C)C)C(=O)N[C@@H](CCCNC(=N)N)C(N)=O)[C@@H](C)CC)[C@@H](C)CC [Peptide C12-KR12] (Lauroyl-KRIWQRIKDFLR-NH2) was tested, and the CSI was <4.
CCCCCCCCCCCCCC(=O)N[C@@H](CCCCN)C(=O)N[C@@H](CCCNC(=N)N)C(=O)N[C@H](C(=O)N[C@@H](Cc1c[nH]c2ccccc12)C(N)=O)[C@@H](C)CC [Peptide C14-KR4] (Myristoyl-KRIW-NH2) was tested, and the CSI was <8.
With CCCCCCCCCCCCCC(=O)N[C@@H](CCCCN)C(=O)N[C@@H](CCCNC(=N)N)C(=O)N[C@H](C(=O)N[C@@H](Cc1c[nH]c2ccccc12)C(=O)N[C@@H](CCC(N)=O)C(=O)N[C@@H](CCCNC(=N)N)C(N)=O)[C@@H](C)CC [Peptide C14-KR6] (Myristoyl-KRIWQR-NH2) the CSI was <8.
For CCCCCCCCCCCCCC(=O)N[C@@H](CCCCN)C(=O)N[C@@H](CCCNC(=N)N)C(=O)N[C@H](C(=O)N[C@@H](Cc1c[nH]c2ccccc12)C(=O)N[C@@H](CCC(N)=O)C(=O)N[C@@H](CCCNC(=N)N)C(=O)N[C@H](C(=O)N[C@@H](CCCCN)C(N)=O)[C@@H](C)CC)[C@@H](C)CC [Peptide C14-KR8] (Myristoyl-KRIWQRIK-NH2), the CSI was <16.
In the case of CCCCCCCCCCCCCC(=O)N[C@@H](CCCCN)C(=O)N[C@@H](CCCNC(=N)N)C(=O)N[C@H](C(=O)N[C@@H](Cc1c[nH]c2ccccc12)C(=O)N[C@@H](CCC(N)=O)C(=O)N[C@@H](CCCNC(=N)N)C(=O)N[C@H](C(=O)N[C@@H](CCCCN)C(=O)N[C@@H](CC(=O)O)C(=O)N[C@@H](Cc1ccccc1)C(N)=O)[C@@H](C)CC)[C@@H](C)CC [Peptide C14-KR10] (Myristoyl-KRIWQRIKDF-NH2), the CSI is reported as <8.
